Screening data, single-dose tests

Mtb glucose medium: 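Phenotypic screen: M. tuberculosis growth, glucose 7H9 medium, 3 days; the read-out is not stated. Tested at 500 µM. Higher reads as more growth inhibition (inferred: compounds with an IC50 in retests scored well above the rest). Of about 18,000 compounds tested this way, about 1,400 (7.9%) reached 50% or more in at least one test.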
Mtb cholesterol medium: 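Whole-cell growth test on Mycobacterium tuberculosis, read after 4 days in a medium based on cholesterol and the lipid DPPC; the read-out is not stated. Concentration: 500 µM. Direction is inferred from retests: higher values go with more growth inhibition. Of about 18,000 compounds tested this way, about 900 (5%) reached 50% or more in at least one test.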

The filed quantity is “Percent Effect” (%). The controls that fix the scale are not given in the record; negative values are as filed. This is part of a subset picked to be rich in strong results. A dash means the value is not listed here; it may have been measured.

| SMILES | Mtb glucose medium | Mtb cholesterol medium |
|---|---|---|
| `Cc1nn(C)c(C)c1C(C)NC(=O)CN1CCCC1` (stereo not shown) | - | -0.4978 |
| `Cc1cnn(CCNc2cc(C)nc(N)n2)c1` | 5.357 | - |
| `CC(CO)CNC(=O)CCNC(=O)NC1CCCCC1` (stereo not shown) | - | 14.8 |
| `CCOc1cc(C(=O)NCc2ccc(C)n2C)ccn1` | 38.44 | 16.78 |
| `CCCn1cc(CNc2nc(C3CC3)no2)cn1` | 74.4 | 80.48 |
| `NC(=O)C1CCN(C(=O)CCc2ccc(Cl)cc2Cl)C1` (stereo not shown) | 68.32 | 62.11 |
| `Cc1cccc(Cn2c(CN)n[nH]c2=O)c1` | 23.76 | - |
| `Cc1ccc(N2CCCC(N)C2)cc1` (stereo not shown) | 41.66 | - |
| `CN1CCOC(CNC(=O)CSCc2ccncc2)C1` (stereo not shown) | -0.9291 | - |
| `C=Cc1ccc(NC(=O)N(C)C2CCN(C)C2)cc1` (stereo not shown) | 14.19 | - |
| `Cc1cc(NC(=O)CCc2cncc(F)c2)nc(=O)[nH]1` | -4.098 | - |
| `COc1cccc(N2CCCC(N)C2)c1` (stereo not shown) | 39.11 | 19.24 |
| `O=C(Cc1cccs1)N1CCNCC1` | 1.401 | - |
| `Cc1ccc(C(C)NC(=O)CCNS(C)(=O)=O)o1` (stereo not shown) | - | -11.79 |
| `c1cc(OC2CCNCC2)ccn1` | 8.35 | - |
| `O=C(c1c(O)cccc1F)N1CCc2cnccc21` | 29.52 | - |
| `Cc1cc(N2CCCC(N)C2)nc(C)n1` (stereo not shown) | 6.363 | 5.687 |
| `Cc1nnsc1CN(C)Cc1ccc(N(C)C)nc1` | - | 38.08 |
| `CC(C)c1ccc(C(=O)N2CCC(O)CC2)cc1` | 35.38 | - |
| `CN(C)C(=O)N1CCCC(C(=O)Nc2ccccn2)C1` (stereo not shown) | 30.31 | - |
| `COc1ccc(S(=O)(=O)N2CCCN(C)CC2)cc1` | 30.72 | - |
| `COc1cc(C(C)=O)ccc1O` | - | -0.7345 |
| `COc1ccc(OC)c(NC(=O)CCN2CCCC2)c1` | 23.54 | - |
| `CNc1cc(CN(C)Cc2cccs2)ccn1` | 65.45 | 70.35 |
| `CN(C)C(=O)c1csc(-c2ccccc2)n1` | 52.2 | 52.15 |
| `CN(C)C(=O)COC(=O)c1ccc(Cl)cc1O` | 2.625 | - |
| `COCCN(C)C(=O)Nc1cccc(C)n1` | 11.84 | 4.71 |
| `COCCc1nc(CCC(F)(F)F)n(CCO)n1` | 1.681 | - |
| `COc1cccc(CNc2cncc(SC)n2)n1` | 71.05 | - |
| `COc1cccc(C(=O)NC2CCNCC2)c1` | -2.507 | - |
| `CN(C)C(=O)c1cn(C)nc1C(F)(F)F` | - | -17.51 |
| `COCC(O)CNc1ccc2ccc(F)cc2n1` (stereo not shown) | 39.19 | - |
| `COc1cccc(CN(C)CC2CCS(=O)(=O)C2)c1` (stereo not shown) | - | 4.645 |
| `NCCn1cc(Br)ccc1=O` | 6.916 | - |
| `CN(CC(N)=O)CC1CCCCC1` | - | 5.795 |
| `O=C1CC(c2ccccc2)C(=O)N1` (stereo not shown) | - | -11.83 |
| `COCC(C)NC(=O)OCC(F)(F)F` (stereo not shown) | - | -8.76 |
| `CC(Sc1ncc2ccccn12)C(=O)NC(N)=O` (stereo not shown) | -3.799 | - |
| `COCC(=O)N(C)C1CCc2ccccc21` (stereo not shown) | 35.56 | - |
| `Cc1c(C(=O)Nc2ccc(F)c(C(N)=O)c2)cnn1C` | - | 6.233 |
| `O=C(C1CCOC1)N1CCN(c2ccncc2Cl)CC1` (stereo not shown) | 4.587 | - |
| `O=C(Nc1ccnc(CO)c1)c1ccc(F)cc1I` | 87.35 | 87.16 |
| `Cn1ncc2c(NCC(=O)N3CCCC3)ncnc21` | 5.754 | - |
| `CC(C)(C)NC(=O)CNC1CCCc2occc21` (stereo not shown) | - | 27.7 |
| `CC(=O)NCCC(=O)N(C)Cc1noc(C(C)C)n1` | 10.64 | - |
| `OCCC1(O)CCOc2ccccc21` (stereo not shown) | - | -11.39 |
| `CN1CN(c2cccc(F)c2C#N)CC1=O` | - | -3.434 |
| `O=C(NCC1CCCCN1)Nc1ccccc1` (stereo not shown) | - | 6.715 |
| `CCc1nn(C)c(CC)c1S(=O)(=O)N1CCCNCC1` | - | 4.386 |
| `NC(=O)NC(=O)CCn1cc(-c2ccccc2)cn1` | -12.37 | -8.468 |
| `COCC(C)(NC(=O)CCc1ccccc1Cl)C(N)=O` (stereo not shown) | 20.41 | - |
| `COc1cc(N2CCNCC2)ncn1` | 7.74 | - |
| `Cc1ccoc1CNC(C)Cn1cncn1` (stereo not shown) | - | -1.015 |
| `CNC1CCc2nnc(C)n2CC1` (stereo not shown) | - | -10.58 |
| `Cn1ncnc1CNS(=O)(=O)c1c(F)cccc1Br` | -4.111 | - |
| `Cn1ccnc(Sc2nnnn2CC2CCCO2)c1=O` (stereo not shown) | 14.99 | - |
| `COc1ccc(NC(=O)NCCN2CCOCC2)cc1` | - | -0.1624 |
| `COC(=O)c1oc(CSc2cnn[nH]2)cc1C` | 36.84 | 35.79 |
| `NC(=O)CCn1ccc(N)n1` | - | 5.586 |
| `Cc1ccccc1C(C)NC(=O)c1ccc(=O)n(C)n1` (stereo not shown) | 21.15 | - |
| `CN(C)c1cc([C@H]2C[C@@H](O)C2)nc(N)n1` | 2.259 | - |
| `N#Cc1cccc(C(=O)NCCCn2cccn2)c1` | 38.16 | 15.93 |
| `COC(=O)N(C)CC(=O)Nc1ccc(C)cc1` | 24.73 | - |
| `CC(C)C(=O)NCCNC(=O)C(C)(C)C` | 3.386 | - |
| `OC1CCN(Cc2nnnn2-c2ccccc2Br)CC1` | - | 33.36 |
| `Cc1ccc2c(c1)nc(CCN)n2C` | 42.38 | 15.18 |
| `Cc1cc(C)c2cc(C(=O)NCCO)[nH]c2c1` | 35.97 | 7.371 |
| `CC(C)NC(=O)Nc1cc(C(F)(F)F)c[nH]c1=O` | - | 110.5 |
| `c1cnc2c(c1)OCCN2` | -4.015 | - |
| `NC(=O)CCS(=O)(=O)CCN1CCCCCC1` | 64.53 | - |
| `CC(O)CCN(C)c1nccnc1C#N` (stereo not shown) | -0.03189 | - |
| `Cc1cc(NC(=O)CN(C)C)ccc1C(=O)NC(C)C` | 6.732 | - |
| `CCc1noc(Cn2nc(C(F)(F)F)ccc2=O)n1` | 50.55 | 50.16 |
| `COCc1cc(N2CCCC(CO)C2)n2nccc2n1` (stereo not shown) | 16.27 | - |
| `CC(N)C(=O)N1CCN(c2ccc(C(N)=O)cc2)CC1` (stereo not shown) | 8.365 | - |
| `CCCc1ccc(S(=O)(=O)N2CCNCC2)cc1` | 56.44 | - |

Repeated from the top, 6 entries:

SMILES	Mtb glucose medium	Mtb cholesterol medium
Cc1nn(C)c(C)c1C(C)NC(=O)CN1CCCC1 (stereo not shown)	-	-0.4978
Cc1cnn(CCNc2cc(C)nc(N)n2)c1	5.357	-
CC(CO)CNC(=O)CCNC(=O)NC1CCCCC1 (stereo not shown)	-	14.8
CCOc1cc(C(=O)NCc2ccc(C)n2C)ccn1	38.44	16.78
CCCn1cc(CNc2nc(C3CC3)no2)cn1	74.4	80.48
NC(=O)C1CCN(C(=O)CCc2ccc(Cl)cc2Cl)C1 (stereo not shown)	68.32	62.11

Source: ChEMBL document CHEMBL3988442, “University of Dundee, Small-Polar-MMV Screening Library” (2021).